Tested on: recombinant Lactobacillus reuteri oxidoreductase
Test: ee determination for selected substrates by GC
Details: 24 h, 1 to 2 units of oxidoreductase

CCOC(=O)CCCCC(=O)CCCl [Ethyl 8-chloro-6-oxooctanoic acid]
Stereoselectivity (percent): 94%

CCCCCCC(C)=O [2-Octanone]
Stereoselectivity (enantiomer formed): Racemate
Stereoselectivity (percent): 50%

CCOC(=O)C(=O)CCc1ccccc1 [Ethyl 2-oxo-4-phenyl-butyrate]
Stereoselectivity (percent): 98%

COC(=O)CCCCC(=O)CC(=O)OC [Dimethyl-3-oxo-1,8-octanedioic acid]
Stereoselectivity (enantiomer formed): Racemate
Stereoselectivity (percent): 50%

CCOC(=O)C(C)=O [Ethyl pyruvate]
Stereoselectivity (percent): 99%

Source: patent publication US20050191735A1, “Oxidoreductase” (priority 2003, published 2005)
